Measured values from several laboratories, pooled; numbers as filed in NIAID ChemDB.

Shared fields: whole-cell or culture tests; organism: HIV-1

ECn is the concentration giving n% inhibition of infection, replication or growth.

structure | read by | measure | strain | cells | mutations | result
O=C(c1ccccc1)N(CCc1ccccc1)C[C@H](O)CN(CC1CCCC1)S(=O)(=O)Cc1cnc[nH]1 | p24 | EC50 | IIIB | CEM |  | <1 µM
CC(=O)Nc1ccc(S(=O)(=O)N(CC(C)C)C[C@@H](O)[C@H](Cc2ccccc2)NC(=O)O[C@H]2CCOC2)cc1 | p24 | EC50 | IIIB | CEM |  | <1 µM
N#Cc1cc2[nH]c3ccccc3c2n(-c2ccc([N+](=O)[O-])cc2)c1=O | cytopathic effect / MTT | EC50 | J | MT-4 | RT-I31L L100I K103N E138G Y181C L214F | 1.59 µM
CC[C@H](C)OC(=S)Nc1ccc(Cl)c(C(=O)OC(C)C)c1 | syncytia | EC50 |  | CEM | RT-Y181C | 1.971 µM
C[C@@H]1CN(C(=O)c2ccccc2)CCN1C(=O)C(=O)c1cn(S(C)(=O)=O)c2c(NS(C)(=O)=O)cccc12 | luciferase / reporter gene | EC50 |  | HeLa |  | <1 µM
Nc1nc(NC2CC2)c2ncn([C@H]3C=C[C@@H](CO)C3)c2n1 | p24 | EC50 | NL-XM WT | MT-4 |  | <1.9 µM
C=C(C)CN(C[C@@H](O)[C@H](Cc1ccccc1)NC(=O)O[C@@H]1CCOC1)S(=O)(=O)c1ccc(F)cc1 | p24 | EC50 | IIIB | CEM |  | <10 µM
CN1c2ccccc2C2C1C=CC(=O)N2c1ccc(-c2noc(Cc3ccccc3)n2)cc1 | cytopathic effect / MTT | EC50 | LAI | MT-4 |  | >32 µM
Nc1nc(=O)n([C@H]2C=C[C@@H](CO)O2)cc1F | p24 | EC50 | NL-XM WT | MT-4 |  | <1.4 µM
Cc1cc(S(N)(=O)=O)ccc1NC(=O)COc1ccc(Cl)cc1C(=O)c1cc(F)cc(C(F)(F)F)c1 | luciferase | EC50 | IIIB | HELA MAGI | RT-Y181C | 0.0031 µM
CCCCCOC(=S)Nc1ccc(Cl)c(C(=O)OC(C)C)c1 | syncytia | EC50 |  | CEM | RT-E138K | 17.45 µM
CC(C)[C@H](NC(=O)OCc1ccccn1)C(=O)N[C@@H](Cc1ccccc1)[C@@H](O)C[C@H](Cc1ccccc1)NC(=O)OCc1cccnc1 | p24 | EC95 | NL4-3 | MT-4 |  | 0.8 µM
CCCOC(=O)c1cc(NC(=S)OC(C)C)ccc1Cl | syncytia | EC50 | IIIB | CEM |  | 0.0316 µM
COc1ccc(S(=O)(=O)N(CC(C)C)C[C@@H](O)CC(=O)N2CCN(C(=O)OCc3ccccc3)C[C@H]2C(=O)NC(C)(C)C)cc1 | p24 | EC50 | IIIB | CEM |  | <1 µM
CC(c1cccc2ccccc12)n1c(=O)c(O)c2n(c1=O)CCN(Cc1ccc(F)cc1)C2=O | p24 | EC50 |  | MT-4 |  | <10 µM
N#CC1=CC2C(c3ccccc3N2Cc2ccccn2)N(c2ccc([N+](=O)[O-])cc2)C1=O | cytopathic effect / MTT | EC50 | LAI | MT-4 |  | 1–32 µM
COc1ccc(S(=O)(=O)N(CC(C)C)CC(O)CN[C@H]2c3ccccc3CC2O)cc1 | p24 | EC90 | IIIB | CEM |  | 1 µM
C=CCOC(=S)Nc1ccc(Cl)c(C(=O)OC(C)C)c1 | syncytia | EC50 |  | CEM | RT-L100I | 12.75 µM
CC(C)n1c(=O)c(O)c2n(c1=O)CCN(Cc1cccc3ccccc13)C2=O | p24 | EC50 |  | MT-4 |  | <10 µM
CCc1c(Sc2ccccc2)n(COCc2ccccc2)c(=S)[nH]c1=O | syncytia | EC50 | IIIB | CEM | RT-Y181I | 0.78 µM
Cc1ncn(Nc2cccc(Cl)c2)c1-c1cccc(Br)c1 | cytopathic effect / MTT | EC50 | SO561945 (RT K103N Y181C) | MT-4 | RT-K103N Y181C | 0.97 µM
COCCOC(=S)Nc1ccc(Cl)c(C(=O)OC(C)C)c1 | syncytia | EC50 |  | CEM | RT-Y181C | ≥30.14 µM
COC(=O)c1[nH]c(=S)n(Nc2cccc(Cl)c2)c1C | cytopathic effect / MTT | EC50 | NL4-3 | MT-4 |  | >48.8 µM
Cc1cc(C)cc(Cc2c(C(C)C)c(=O)[nH]c(=O)n2COCCO)c1 | syncytia | EC50 | IIIB | CEM | RT-Y181I | >10 µM
CC(C)OC(=S)Nc1ccc(Cl)c(C(=O)OC2CCCC2)c1 | syncytia | EC50 |  | CEM | RT-V106A | 1.609 µM
C[C@@H]1CN(C(=O)c2ccccc2)CCN1C(=O)C(=O)c1c[nH]c2c(NC(=O)NCCCCCC(=O)O)cccc12 | luciferase / reporter gene | EC50 |  | HeLa |  | <1 µM
CC(C)OC(=S)Nc1ccc(Cl)c(C(=O)OC2(C)COC2)c1 | syncytia | EC50 |  | CEM | RT-L100I | 2.036 µM
CC(C)c1c(Sc2ccccc2)n(COCc2ccccc2)c(=S)[nH]c1=O | syncytia | EC50 | IIIB (TIBO 82150) (RT-L100I) | CEM | RT-L100I | 0.01 µM
CCOC(=O)CC[C@@H]1NC(=O)N(c2cccc3c(C(=O)C(=O)N4CCC(=C(C#N)c5ccccc5)CC4)c[nH]c23)C1=O | luciferase / reporter gene | EC50 |  | HeLa |  | <1 µM
COc1ccc(-n2c(=O)c(O)c3n(c2=O)CCN(Cc2ccc(F)cc2)C3=O)cn1 | p24 | EC95 |  | MT-4 |  | <10 µM
CCCCC(CC)COC(=O)c1cc(NC(=S)OC(C)C)ccc1Cl | syncytia | EC50 |  | CEM | RT-Y181C | 16.84 µM
CC(C)CN(C[C@@H](O)[C@H](Cc1ccccc1)NC(=O)OCc1cccnc1)S(=O)(=O)c1ccc2nonc2c1 | p24 | EC50 | IIIB | CEM |  | <10 µM
CCOCn1c(Sc2ccccc2)c(C(C)C)c(=O)[nH]c1=O | syncytia | EC50 | IIIB (TIBO 82150) (RT-L100I) | CEM | RT-L100I | 0.11 µM
O=C1c2c(O)c(=O)n([C@@H]3C[C@H]3c3ccccc3)c(=O)n2CCN1Cc1ccc(F)cc1 | p24 | EC95 |  | MT-4 |  | <10 µM
CC(C)OC(=O)Nc1ccc(Cl)c(C(=O)OC(C)C)c1 | syncytia | EC50 |  | CEM | RT-Y181C | >33.36 µM
Cc1cccc(Nn2cnc(C)c2C)c1 | cytopathic effect / MTT | EC50 | NL4-3 | MT-4 |  | >312 µM
COc1ccc(S(=O)(=O)N(CC(C)C)C[C@@H](O)CCN(CC2CCCC2)S(=O)(=O)Cc2cccc3nc(C)oc23)cc1 | p24 | EC90 | IIIB | CEM |  | 1 µM
Cc1ccc(-c2ccc3c(c2)C=C(C(=O)Nc2ccc(C[N+](C)(C)C4CCOCC4)cc2)CCC3)cc1 | p24 | EC50 | PCP1 CLADE C | PBMC |  | <5 µM
CC(C)CN(C[C@@H](O)[C@H](Cc1ccccc1)NC(=O)[C@H](CC(N)=O)NC(=O)c1ccc2ccccc2n1)S(=O)(=O)c1ccc(-c2ccccn2)s1 | p24 | EC90 | IIIB | CEM |  | ≤0.1 µM
CCc1c(Sc2cc(C)cc(C)c2)n(COCCO)c(=O)[nH]c1=O | syncytia | EC50 | IIIB | CEM |  | 0.003 µM
CC(C)OC(=S)Nc1ccc(Cl)c(C(=O)OCC2CC2)c1 | syncytia | EC50 |  | CEM | RT-L100I | 2.135 µM
CC(C)CN(C[C@@H](O)[C@H](Cc1ccccc1)NC(=O)[C@H](CC(N)=O)NC(=O)c1ccc2ccccc2n1)S(=O)(=O)N(C)C | p24 | EC90 | IIIB | CEM |  | ≤0.1 µM
CCOCn1c(Cc2ccccc2)c(C(C)C)c(=O)[nH]c1=O | syncytia | EC50 | IIIB | CEM | RT-Y181I | 27 µM
COc1ccc(S(=O)(=O)N(CC(C)C)C[C@@H](O)CCN(CC2CCCC2)S(=O)(=O)c2ccc(N)cc2)cc1 | p24 | EC90 | IIIB | CEM |  | 1 µM
Nc1ccc(S(=O)(=O)N(CC2CCCC2)C[C@@H](O)[C@H](Cc2ccccc2)NC(=O)O[C@@H]2CCOC2)cc1 | p24 | EC90 | IIIB | CEM |  | ≤0.1 µM
CC(C)OC(=S)Nc1ccc(Cl)c(C(=O)OCc2ccccc2)c1 | syncytia | EC50 |  | CEM | RT-L100I | 15.1 µM
CCOCn1c(Cc2cc(C)cc(C)c2)c(CC)c(=O)[nH]c1=O | syncytia | EC50 | IIIB (TIBO 82150) (RT-L100I) | CEM | RT-L100I | 0.008 µM
CC(C)CN(C[C@@H](O)[C@H](Cc1ccccc1)NC(=O)[C@H](CC(N)=O)NC(=O)c1ccc2ccccc2n1)S(=O)(=O)c1ccc(F)cc1 | p24 | EC90 | IIIB | CEM |  | ≤0.1 µM
N#CC(=C1CCN(C(=O)C(=O)c2c[nH]c3c(NC(=O)Nc4ccc(C#N)cc4)cccc23)CC1)c1ccccc1 | luciferase / reporter gene | EC50 |  | HeLa |  | <1 µM
CC(C)OC(=S)Nc1ccc(Cl)c(C(=O)SC(C)C)c1 | syncytia | EC50 |  | CEM | RT-Y181C | 1.808 µM
Cc1nc(-c2ccc(N3C(=O)C(Br)=CC4C3c3ccccc3N4C)cc2)no1 | cytopathic effect / MTT | EC50 | LAI | MT-4 |  | 1–32 µM
CC(C)O/N=C/c1cc(NC(=S)OC(C)C)ccc1Cl | syncytia | EC50 | IIIB | CEM |  | 0.0303 µM
CC(C)(C)NC(=O)c1ccccc1C(=O)C(=O)C(=O)N(CC1CCCC1)S(=O)(=O)c1ccccc1 | p24 | EC90 | IIIB | CEM |  | 1 µM
C/C=C/COc1cc(NC(=S)OC(C)C)ccc1Cl | syncytia | EC50 |  | CEM | RT-E138K | 0.3335 µM
Cn1c2ccccc2c2c1cc(C#N)c(=O)n2-c1ccc([N+](=O)[O-])cc1 | cytopathic effect / MTT | EC50 | A | MT-4 | RT-Y181C | 0.1 µM
CCC(C)OC(=S)Nc1ccc(Cl)c(C(=O)OC(C)(C)C)c1 | syncytia | EC50 | IIIB | CEM |  | 0.087 µM
CCOCn1c(Sc2ccccc2)c(CC)c(=O)[nH]c1=O | syncytia | EC50 | IIIB | CEM | RT-E138K | 0.13 µM
CC(C)OC(=O)c1cc(NC(=S)OC(C)C)ccc1Cl | syncytia | EC50 | IIIB | CEM |  | 0.028 µM
CCOCn1c(Sc2cc(C)cc(C)c2)c(CC)c(=O)[nH]c1=O | syncytia | EC50 | IIIB | CEM | RT-Y188H | 8.9 µM
CO/N=C/c1cc(NC(=S)OC(C)C)ccc1Cl | syncytia | EC50 |  | CEM | RT-E138K | 2.441 µM
CN(C)CCCN1c2ccccc2C2C1C=C(C#N)C(=O)N2c1ccc([N+](=O)[O-])cc1 | cytopathic effect / MTT | EC50 | LAI | MT-4 |  | <1 µM
CCC(CC)COC(=O)c1cc(NC(=S)OC(C)C)ccc1Cl | syncytia | EC50 |  | CEM | RT-V106A | 2.375 µM
Clc1cccc(Nn2cnc3c2CCCC3)c1 | cytopathic effect / MTT | EC50 | SO561945 (RT K103N Y181C) | MT-4 | RT-K103N Y181C | >67.29 µM
N#CCCN1c2ccccc2C2C1C=C(C#N)C(=O)N2c1ccc([N+](=O)[O-])cc1 | cytopathic effect / MTT | EC50 | LAI | MT-4 |  | 1–32 µM
CC(C)OC(=O)c1cc(NC(=S)OC(C)(C)C)ccc1Cl | syncytia | EC50 | IIIB | CEM |  | 1.819 µM

The last 8 rows once more:

structure,read by,measure,strain,cells,mutations,result
CC(C)OC(=O)c1cc(NC(=S)OC(C)C)ccc1Cl,syncytia,EC50,IIIB,CEM,,0.028 µM
CCOCn1c(Sc2cc(C)cc(C)c2)c(CC)c(=O)[nH]c1=O,syncytia,EC50,IIIB,CEM,RT-Y188H,8.9 µM
CO/N=C/c1cc(NC(=S)OC(C)C)ccc1Cl,syncytia,EC50,,CEM,RT-E138K,2.441 µM
CN(C)CCCN1c2ccccc2C2C1C=C(C#N)C(=O)N2c1ccc([N+](=O)[O-])cc1,cytopathic effect / MTT,EC50,LAI,MT-4,,<1 µM
CCC(CC)COC(=O)c1cc(NC(=S)OC(C)C)ccc1Cl,syncytia,EC50,,CEM,RT-V106A,2.375 µM
Clc1cccc(Nn2cnc3c2CCCC3)c1,cytopathic effect / MTT,EC50,SO561945 (RT K103N Y181C),MT-4,RT-K103N Y181C,>67.29 µM
N#CCCN1c2ccccc2C2C1C=C(C#N)C(=O)N2c1ccc([N+](=O)[O-])cc1,cytopathic effect / MTT,EC50,LAI,MT-4,,1–32 µM
CC(C)OC(=O)c1cc(NC(=S)OC(C)(C)C)ccc1Cl,syncytia,EC50,IIIB,CEM,,1.819 µM

Conditions beyond the fields shown may differ between rows. Blank or dashed fields: not listed here. a–b is a range or a potency band.